Tested on: resting CD4+ T cells from aviremic, ART-treated HIV+ patients
Experiment: limiting-dilution outgrowth assay, HIV detected by p24 antigen capture ELISA
Format: cell-based, human
Conditions: for Infected resting cells per billion after exposure to: VPA 40 μM, SAHA 250 nM, PHA/allo

N-Hydroxy-N′-phenyl octanediamide [SAHA]
Infected resting cells per billion after exposure to (Patient A1): 410 per billion
Infected resting cells per billion after exposure to (Patient A2): 561 per billion
Infected resting cells per billion after exposure to (Patient B): 1,927 per billion
Infected resting cells per billion after exposure to (Patient C): <31 per billion
virus outgrowth ex vivo from patients' cells (summary in words): efficiently induced
